Read-outs that look alike come from different tables or passages of the source. The match of structure and compound is tentative.
System: HCMV (strain AD169)
Experiment: Inhibition of HCMV replication, plaque reduction assay (PRA, Hs-68 cells)
Assay type: cell-based, human cytomegalovirus
Settings: read-out: PRA CMV EC50
Experimental: C) Inhibition of Human Cytomegalovirus (HCMV) replication
The effect of compounds on the replication of HCMV has been measured by using an ELISA-based assay (ELISA) and a plaque reduction assay (PRA).
Hs-68 cells ( ATCC # CRL 1635) were seeded in 12-well plates at 83,000 cells/well in 1 mL of DMEM medium (Gibco Canada Inc.) supplemented with 10% fetal bovine serum (FBS, Gibco Canada Inc.). The plates were incubated for 3 days at 37° to allow the cells to reach 80-90% confluency prior to the assay.
The medium was removed from the cells by aspiration. The cells were then infected with approximately 50 PFU of HCMV (strain AD169, ATCC VR-538) in DMEM medium supplemented with 5% inactivated FBS (assay medium). The virus was allowed to adsorb to cells for 2 h at 37°. Following viral adsorption, the medium was removed from the wells by aspiration. The cells were then incubated with or without 1 mL of appropriate concentrations of test reagent in assay medium. After 4 days of incubation at 37°, the medium was exchanged with fresh medium containing test compound and 4 days later the cells were fixed with 1% aqueous formaldehyde and stained with a 2% crystal violet solution in 20% ethanol in water. Microscopic plaques were counted using a stereomicroscope. Drug effects were calculated as a percent reduction in the number of plaques in the presence of each drug concentration compared to the number observed in the absence of drug. Ganciclovir was used as a positive control in all experiments.
The EC50 values obtained according to this assay for certain thiazolyl derivatives of this invention are listed in the following tables under the heading PRA CMV.

Row | SMILES | EC50 (Group 3, Table 1) | EC50 (Group 2, Table 1)
1 | Nc1nc(-c2ccc(NC(=O)CN(Cc3cccnc3)C(=O)C3CCCCC3)cc2)cs1 | 7.3 µM | –
2 | Nc1nc(-c2ccc(NC(=O)CN(Cc3ccccc3)C(=O)C3CCCC3)cc2)cs1 | 7 µM | 3 µM
3 | Nc1nc(-c2ccc(NC(=O)CN(Cc3ccccc3)C(=O)c3cnccn3)cc2)cs1 | 7 µM | 2.4 µM
4 | Nc1nc(-c2ccc(NC(=O)CN(Cc3ccccc3)C(=O)c3cccs3)cc2)cs1 | 4.5 µM | 2 µM
5 | CC(C)(C)CC(=O)N(CC(=O)Nc1ccc(-c2csc(N)n2)cc1)Cc1ccccc1 | 15 µM | –
6 | Nc1nc(-c2ccc(NC(=O)CN(CCc3ccccn3)C(=O)C3CCCCC3)cc2)cs1 | 14 µM | –
7 | Nc1nc(-c2ccc(NC(=O)CN(Cc3ccccc3)C(=O)CC3CCCC3)cc2)cs1 | 14 µM | –
8 | CC(C)(C)C(=O)N(CC(=O)Nc1ccc(-c2csc(N)n2)cc1)Cc1ccccc1 | 5.3 µM | –
9 | CC(C)C(=O)N(CC(=O)Nc1ccc(-c2csc(N)n2)cc1)Cc1ccccc1 | 12 µM | –
10 | CC1(C(=O)N(CC(=O)Nc2ccc(-c3csc(N)n3)cc2)Cc2ccccc2)CCCCC1 | 7.7 µM | 2.2 µM
11 | Nc1nc(-c2ccc(NC(=O)CN(Cc3ccccc3)C(=O)C3CCCCC3)cc2)cs1 [Example 4, N-{2-{{4-(2-Amino-4-thiazolyl)phenyl)amino}-2-oxoethyl}-N-(phenylmethyl)cyclohexanecarboxamide] | 7 µM | 10 µM
12 | Nc1nc(-c2ccc(NC(=O)CN(Cc3cccs3)C(=O)C3CCCCC3)cc2)cs1 | 5.8 µM | –
13 | CC(=O)N(CC(=O)Nc1ccc(-c2csc(N)n2)cc1)Cc1ccccc1 | 7 µM | –
14 | CC(C)(C)OC(=O)N1CCC(C(=O)N(CC(=O)Nc2ccc(-c3csc(N)n3)cc2)Cc2ccccc2)CC1 | 3 µM | –
15 | Nc1nc(-c2ccc(NC(=O)CN(Cc3ccccc3)C(=O)CC3CCCCC3)cc2)cs1 | 16 µM | –
16 | Nc1nc(-c2ccc(NC(=O)CN(Cc3ccccc3)C(=O)C3CCCCCC3)cc2)cs1 | 11 µM | –
17 | COc1ccc(CN(CC(=O)Nc2ccc(-c3csc(N)n3)cc2)C(=O)C2CCCCC2)cc1 | 13 µM | –
18 | Nc1nc(-c2ccc(NC(=O)CN(Cc3ccccn3)C(=O)C3CCCCC3)cc2)cs1 | 14 µM | –
19 | Nc1nc(-c2ccc(NC(=O)CN(Cc3ccccc3)C(=O)Cc3ccccn3)cc2)cs1 | 16 µM | 2 µM
